Anti-infective test results gathered from many reports (values: NIAID ChemDB through PubChem).

Shared fields: enzyme or target tests; protein: CCR5; read by: radiometric; measure: IC50

Neighbouring rows are from separate reports. ICn: concentration for n% inhibition.

| SMILES | value |
|---|---|
| O=C(Nc1ccc(Br)cc1)N(CCCN1CCC(Cc2ccc(F)cc2)CC1)c1ccccc1 | 0.018 µM |
| CCCCOCCOc1ccc(-c2ccc3c(c2)C=C(C(=O)Nc2ccc(S(=O)Cc4cn(CCC)cn4)cc2)CCN3CC(C)C)cc1 | 0.044 µM |
| CS(=O)(=O)c1ccc(CC2CCN(CCCN(C(=O)Nc3ccc(Cl)cc3)c3ccccc3)CC2)cc1 | 0.0012 µM |
| CN(Cc1ccc(NC(=O)C2=Cc3cc(-c4ccc(N5CCOCC5)cc4)ccc3S(=O)(=O)CC2)cc1)C1CCOCC1 | 0.07 µM |
| O=C(C1CCCNC1)N(CCCN1CCC(Cc2ccccc2)CC1)c1ccccc1 | 0.78 µM |
| CN1CCC(C(=O)Nc2ccc(CN(C)C3CCOCC3)cc2)=Cc2cc(-c3ccc(N4CCOCC4)cc3)ccc21 | 0.049 µM |
| O=C(Nc1ccc(F)cc1)N(CCCN1CCC(Cc2ccc(F)cc2)CC1)c1ccccc1 | 0.013 µM |
| O=C(C1CCNCC1)N(CCCN1CCC(Cc2ccccc2)CC1)c1ccccc1 | 4.3 µM |
| CCCCOCCOc1ccc(-c2ccc3c(c2)C=C(C(=O)Nc2ccc(S(=O)Cc4cccnn4)cc2)CCN3CC(C)C)cc1 | 0.022 µM |
| O=C(Nc1ccc(Cl)cc1)N(CCCN1CCC(Cc2ccc(S(=O)(=O)N3CCOCC3)cc2)CC1)c1ccccc1 | 0.001 µM |
| CCCCOCCOc1ccc(-c2ccc3c(c2)C=C(C(=O)Nc2ccc([S@](=O)Cc4nncn4CCC)cc2)CCN3CCC)cc1 | 0.0058 µM |
| CCCNC(=O)N(CCCN1CCC(Cc2ccccc2)CC1)c1ccccc1 | 0.062 µM |
| CCCCOCCOc1ccc(-c2ccc3c(c2)C=C(C(=O)Nc2ccc(S(=O)Cc4cccnc4)cc2)CCN3CC(C)C)cc1 | 0.015 µM |
| CCCOCCOc1ccc(-c2ccc3c(c2)C=C(C(=O)Nc2ccc(CN(C)C4CCOCC4)cc2)CCS3(=O)=O)cc1 | 0.035 µM |
| O=C(Nc1ccc(Cl)cc1)N(CCCN1CCC(Cc2ccccc2)CC1)c1ccccc1 | 0.0059 µM |
| CCCCOCCOc1ccc(-c2ccc3c(c2)C=C(C(=O)Nc2ccc(CN(C)C4CCOCC4)cc2)CCN3CC)cc1 | 0.0056 µM |
| COc1ccc(NC(=O)N(CCCN2CCC(Cc3ccc(F)cc3)CC2)c2ccccc2)cc1 | 0.03 µM |
| CCCCOCCOc1ccc(-c2ccc3c(c2)C=C(C(=O)Nc2ccc(S(=O)Cc4ccccn4)cc2)CCN3CCC)cc1 | 0.067 µM |
| CS(=O)(=O)N1CCCC(C(=O)N(CCCN2CCC(Cc3ccccc3)CC2)c2ccccc2)C1 | 0.18 µM |
| Cc1ccc(-c2ccc3c(c2)C=C(C(=O)Nc2ccc(CN(C)C4CCOCC4)cc2)CCN3C)cc1 | 0.13 µM |
| CCS(=O)(=O)c1ccc(CC2CCN(CCCN(C(=O)C3CCN(S(C)(=O)=O)CC3)c3ccc(Cl)c(Cl)c3)CC2)cc1 | 0.0019 µM |
| NC(=O)c1ccc(NC(=O)N(CCCN2CCC(Cc3ccc(F)cc3)CC2)c2ccccc2)cc1 | 0.029 µM |
| CCCCOCCOc1ccc(-c2ccc3c(c2)C=C(C(=O)Nc2ccc(S(=O)Cc4nccn4CCC)cc2)CCN3CC(C)C)cc1 | 0.0043 µM |
| CC(C)C(=O)N1CCC(C(=O)N(CCCN2CCC(Cc3ccccc3)CC2)c2ccccc2)CC1 | 0.039 µM |

Repeating the first 2 entries:

SMILES | value
O=C(Nc1ccc(Br)cc1)N(CCCN1CCC(Cc2ccc(F)cc2)CC1)c1ccccc1 | 0.018 µM
CCCCOCCOc1ccc(-c2ccc3c(c2)C=C(C(=O)Nc2ccc(S(=O)Cc4cn(CCC)cn4)cc2)CCN3CC(C)C)cc1 | 0.044 µM